Laboratory results taken from publication PMC6277555, “Short Symmetric-End Antimicrobial Peptides Centered on β-Turn Amino Acids Unit Improve Selectivity and Stability” (Frontiers in Microbiology, 2018).
Residues, ends and D or L forms follow the SMILES beside them. No end group written: not given here.

Test: Circular dichroism, secondary structure content
Type: physicochemical
Settings: CD, 25°C, content by K2D2
[1] = 10 mM PBS pH 7.4, 150 μM peptide

Compound	α-helix [1] [%]	β-strand [1] [%]	α-helix (30 mM SDS, 150 μM peptide) [%]	β-strand (30 mM SDS, 150 μM peptide) [%]	α-helix (50% TFE, 150 μM peptide) [%]	β-strand (50% TFE, 150 μM peptide) [%]
IHKFWRGGRWFKHI-NH2 [GG]	1.49	32.19	11.99	9.42	18.98	11.53
CC[C@H](C)[C@H](N)C(=O)N[C@@H](Cc1c[nH]cn1)C(=O)N[C@@H](CCCCN)C(=O)N[C@@H](Cc1ccccc1)C(=O)N[C@@H](Cc1c[nH]c2ccccc12)C(=O)N[C@@H](CCCNC(=N)N)C(=O)N[C@@H](CS)C(=O)N[C@@H](CCCNC(=N)N)C(=O)N[C@@H](CCCNC(=N)N)C(=O)N[C@@H](CCCNC(=N)N)C(=O)N[C@@H](Cc1ccccc1)C(=O)N[C@@H](CS)C(=O)N[C@@H](CCCNC(=N)N)C(=O)N[C@@H](Cc1c[nH]c2ccccc12)C(=O)N[C@@H](Cc1ccccc1)C(=O)N[C@@H](CCCCN)C(=O)N[C@@H](Cc1c[nH]cn1)C(=O)N[C@H](C(N)=O)[C@@H](C)CC [PQ] (H-IHKFWRCRRRFCRWFKHI-NH2; N-terminus assumed)	26.91	11.16	32.02	6.15	36.82	4.28
